Read-outs that look alike come from different tables or passages of the source.
Key:
TMV = test: Curative activity against TMV, half leaf; details: for Curative activity against TMV: half leaf
TMV CP discs [1] = target: T1, TMV CP discs (Tobacco mosaic virus, UniProt P69687); details: read-out: Kd to TMV CP discs (Fluo.)
TMV CP discs [2] = target: T1, TMV CP discs; details: read-out: Kd to TMV CP discs (ITC)
TMV CP mutant [3] = target: T2, TMV CP mutant (Tobacco mosaic virus, UniProt P69687, R72G/S16G/S50G/Y73G); details: read-out: Kd mutant (Fluo.)
TMV CP mutant [4] = target: T2, TMV CP mutant; details: read-out: Kd mutant (ITC)

Amino acid sequences for entries named in this document (tags omitted). A change or cut given only in a name is not applied to a line headed by its entry.
UniProt P69687, whole entry: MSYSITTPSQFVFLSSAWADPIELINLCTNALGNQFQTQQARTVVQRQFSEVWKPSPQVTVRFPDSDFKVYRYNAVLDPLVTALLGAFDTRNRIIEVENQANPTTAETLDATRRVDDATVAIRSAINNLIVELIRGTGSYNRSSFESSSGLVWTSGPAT
UniProt P69687, whole entry S16G/S50G/R72G/Y73G: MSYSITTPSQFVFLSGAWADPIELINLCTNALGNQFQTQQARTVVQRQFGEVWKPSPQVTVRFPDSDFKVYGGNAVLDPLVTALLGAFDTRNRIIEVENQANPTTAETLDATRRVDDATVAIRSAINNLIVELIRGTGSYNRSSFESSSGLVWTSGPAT

CC1NC(C(=O)N/N=C/c2ccc(Cl)cc2)Cc2c1[nH]c1ccccc21 (stereo not shown)
Curative activity against TMV (TMV; 100 μg/mL): 30.8% | Curative activity against TMV (TMV; 500 μg/mL): 71.5% | anti-TMV activity in words (TMV; 500 μg/mL, vivo experiment): significant anti-TMV activities | Kd (TMV CP discs [1]): 1.25 µM | Kd (TMV CP discs [2]): 31.2 µM | Kd (TMV CP mutant [3]): 25.6 µM | Kd (TMV CP mutant [4]): 133 µM

Reference: paper PMC5669903
